# In PMC4752478, “Probing the Catalytic Mechanism of Vibrio harveyi GH20 β-N-Acetylglucosaminidase by Chemical Rescue” (PLoS ONE, 2016):
# Protein sequences, listed by entry. Tags and fused reporters are not part of them. Residues count along the entry.
# UniProt D9ISE0, 1-642 limits assumed: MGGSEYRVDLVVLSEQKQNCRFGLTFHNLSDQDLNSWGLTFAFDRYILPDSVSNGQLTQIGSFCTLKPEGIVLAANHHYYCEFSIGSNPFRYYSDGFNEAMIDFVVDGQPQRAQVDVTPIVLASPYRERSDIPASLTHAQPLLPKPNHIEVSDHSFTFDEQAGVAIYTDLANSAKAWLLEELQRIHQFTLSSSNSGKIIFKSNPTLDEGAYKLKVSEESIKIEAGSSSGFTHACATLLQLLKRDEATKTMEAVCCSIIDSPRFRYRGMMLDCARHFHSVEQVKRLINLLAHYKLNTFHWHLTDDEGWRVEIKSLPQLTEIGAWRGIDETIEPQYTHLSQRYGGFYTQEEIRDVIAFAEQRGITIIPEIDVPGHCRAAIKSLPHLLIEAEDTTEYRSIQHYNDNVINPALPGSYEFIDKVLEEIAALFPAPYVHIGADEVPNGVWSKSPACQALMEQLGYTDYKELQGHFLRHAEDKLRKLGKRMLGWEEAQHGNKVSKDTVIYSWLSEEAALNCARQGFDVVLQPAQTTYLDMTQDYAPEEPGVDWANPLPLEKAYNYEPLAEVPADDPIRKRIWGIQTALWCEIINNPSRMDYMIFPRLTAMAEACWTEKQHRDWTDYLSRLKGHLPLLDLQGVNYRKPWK
# Target: VhGlcNAcase (Vibrio harveyi, UniProt D9ISE0)
# Settings: 1 M
smiles,measurement,value
[N-]=[N+]=N,activity,5%
